Results of unrelated studies side by side (data: NIAID ChemDB).

Common to all: target-level tests; organism: Hepatitis C virus

ICn is the concentration giving n% inhibition. Two numbers with a dash give a range or band. An empty or dashed field is not shown. Conditions beyond the fields shown may differ between rows. Inhibition is in % at the dose shown (toxicity tests: loss of growth or viability).

compound,target,measure,dose,result
COc1ccc(-c2ccc(C(=O)N3CCCC3)cc2-c2ccc3cc(-c4nc5cc(C(=O)O)ccc5n4C4CCCCC4)ccc3n2)cc1OC,NS5B polymerase,inhibition,33 µM,101%
O=C(O)c1nc(-c2cccc(OCc3ccc(Cl)cc3)c2)[nH]c(=O)c1O,HCV polymerase,IC50,,<100 µM
CC[C@H](NC(=O)[C@H](CC(C)C)NC(=O)[C@@H](NC(=O)[C@@H](NC(=O)C(CC(=O)O)CC(=O)[C@H](CCC(=O)O)NC(C)=O)C(C)C)C(C)C)C(=O)C(=O)O,NS3 protease,Ki,,<1 µM
CCOC(=O)c1cnn2c(C)cc(-c3ccc(OCC)cc3)nc12,RNA-dependent RNA polymerase,IC50,,>10 µM
CC(C)N(C(=O)C1CC[C@@H](C)C[C@@H]1O)c1cc(-c2ccccc2)sc1C(=O)O,NS3 ATPase,IC50,,<5 µM
CC[C@@H](C=O)NC(=O)[C@@H]1C[C@@H](OCc2ccccc2)CN1C(=O)[C@@H](NC(=O)CCCc1ccccc1)C(C)C,NS3 protease,Ki,,>100 µM
O=C(O)c1cc2nc(-c3ccc(OCc4ccccc4)cc3)cc(-c3ccc(-c4ccccc4)cc3)n2n1,RNA-dependent RNA polymerase,IC50,,1–10 µM
CNC(=O)c1c(-c2ccc(F)cc2)oc2cc(-c3cncs3)c(OC(C)C)cc12,Nonstructural protein 5B,IC50,,≤0.5 µM
CC[C@@H](C=O)NC(=O)[C@@H]1C[C@@H](OCc2ccccc2)CN1C(=O)[C@@H](NC(=O)[C@H](Cc1cnc[nH]1)NC(=O)c1cnccn1)C(C)C,NS3 protease,Ki,,>100 µM
O=C(O)c1cc2nc(-c3ccc(F)cc3)cc(-c3ccc(-c4ccccc4)cc3)n2n1,RNA-dependent RNA polymerase,IC50,,1–10 µM
CNC(=O)c1c(-c2ccc(F)cc2)oc2cc(-c3cc(COC)on3)c(OC)cc12,Nonstructural protein 5B,IC50,,≤0.5 µM
O=C(c1ccc2c(c1)nc(-c1cc3ccc(-c4ccccc4-c4ccc(Cl)cc4)nc3cc1F)n2C1CCCCC1)N1CCC(O)CC1,NS5B polymerase,inhibition,100 µM,91.87%
CNC(=O)c1c(-c2ccc(F)cc2)oc2cc(N(C)S(C)(=O)=O)c(OCc3nc(C(=O)O)cs3)cc12,Nonstructural protein 5B,IC50,,≤0.5 µM
Cc1ccc(S(=O)(=O)Nc2c(C(=O)O)sc(-c3ccccc3)c2C)c(C)c1,NS3 ATPase,IC50,,5–20 µM
O=C(O)c1cc2nc(-c3ccc(Cl)cc3)cc(Nc3cccc(OCc4ccccc4)c3)n2n1,RNA-dependent RNA polymerase,IC50,,>10 µM
O=C(Nc1cscc1-c1nc(C(=O)O)c(O)c(=O)[nH]1)NS(=O)(=O)c1ccccc1Br,HCV polymerase,IC50,,<25 µM
CCCC(=O)N(Cc1ccc(C(C)(C)C)cc1)c1cc(-c2ccccc2)sc1C(=O)O,NS3 ATPase,IC50,,5–20 µM
O=C(O)c1ccc2c(c1)nc(-c1ccc3nc(-c4cc(OCCCN5CCCC5)ccc4-c4ccccc4)ccc3c1)n2C1CCCCC1,NS5B polymerase,inhibition,100 µM,96.65%
O=C(O)c1nc(-c2ccccc2NS(=O)(=O)c2ccc(F)c(Cl)c2)[nH]c(=O)c1O,HCV polymerase,IC50,,<100 µM
Cc1ccc(-c2nc3ccc(-c4nc5cc(C(=O)O)ccc5n4C4CCCCC4)cc3nc2-c2ccc(C)cc2)cc1,NS5B polymerase,inhibition,100 µM,99.55%
O=C(O)c1cc2nc(-c3ccccc3)c(-c3ccc(Oc4ccccc4)cc3)c(=O)n2[nH]1,RNA-dependent RNA polymerase,IC50,,>10 µM
C#Cc1cc(NS(=O)(=O)c2ccccc2C)c(C(=O)O)s1,NS3 ATPase,IC50,,5–20 µM
COc1ccc(-c2ccc(F)cc2)c(-c2ccc3cc(-c4nc5cc(C(=O)O)ccc5n4C4CCCCC4)ccc3n2)c1,NS5B polymerase,inhibition,33 µM,100%
COc1ccc(-c2cc(-c3ccc(C(F)(F)F)cc3)nc3cc(C(=O)O)nn23)cc1Cl,RNA-dependent RNA polymerase,IC50,,1–10 µM
O=C(O)c1ccc2c(c1)nc(-c1ccc3nc(-c4cc(OCC(=O)N5CCCC5)ccc4-c4ccccc4)ccc3c1)n2C1CCCCC1,NS5B polymerase,inhibition,33 µM,97.56%
C=CCN(C(=O)Cc1ccc(Cl)c(Cl)c1)c1cc(-c2ccccc2)sc1C(=O)O,NS3 ATPase,IC50,,5–20 µM
O=C(O)c1ccc2c(c1)nc(-c1ccc3nc(-c4ccccc4-c4ccccc4)ccc3c1)n2C1CCCCC1,NS5B polymerase,inhibition,100 µM,101%
O=C(NCc1ccccc1Cl)Nc1ccc(NC(=O)c2cccs2)cc1-c1nc(C(=O)O)c(O)c(=O)[nH]1,HCV polymerase,IC50,,<100 µM
CC[C@@H](C=O)NC(=O)[C@@H]1C[C@@H](OCc2ccccc2)CN1C(=O)[C@@H](NC(=O)c1c(O)ccc2ccccc12)C(C)C,NS3 protease,Ki,,1–100 µM
O=C(NCc1cccc([N+](=O)[O-])c1)Nc1ccccc1-c1nc(C(=O)O)c(O)c(=O)[nH]1,HCV polymerase,IC50,,<100 µM
O=C(O)c1ccc2c(c1)nc(-c1ccc3nc(-c4cccc(-c5ccc(Cl)cc5)c4)ccc3c1)n2C1CCCCC1,NS5B polymerase,inhibition,33 µM,101.5%
Cc1ccc(C(=O)Nc2ccsc2-c2nc(C(=O)O)c(O)c(=O)[nH]2)cc1Cl,HCV polymerase,IC50,,<25 µM
COc1cccc(-c2ccc(-c3cnc4c(-c5nn[nH]n5)cnn4c3C3CCCCC3)cc2)c1,RNA-dependent RNA polymerase,IC50,,1–10 µM
O=C(COc1ccc(OC(F)(F)F)cc1)Nc1cscc1-c1nc(C(=O)O)c(O)c(=O)[nH]1,HCV polymerase,IC50,,<25 µM
CNC(=O)c1c(-c2ccc(F)cc2)oc2cc(N(C)S(C)(=O)=O)c(OC)cc12,Nonstructural protein 5B,IC50,,≤0.5 µM

The last 3 rows once more:

compound	target	measure	dose	result
COc1cccc(-c2ccc(-c3cnc4c(-c5nn[nH]n5)cnn4c3C3CCCCC3)cc2)c1	RNA-dependent RNA polymerase	IC50		1–10 µM
O=C(COc1ccc(OC(F)(F)F)cc1)Nc1cscc1-c1nc(C(=O)O)c(O)c(=O)[nH]1	HCV polymerase	IC50		<25 µM
CNC(=O)c1c(-c2ccc(F)cc2)oc2cc(N(C)S(C)(=O)=O)c(OC)cc12	Nonstructural protein 5B	IC50		≤0.5 µM